Library screen at single concentrations

Mtb glucose medium: 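Whole-cell growth test on Mycobacterium tuberculosis, read after 3 days in glucose-containing 7H9 medium; the read-out is not stated. Compounds at 500 µM. Higher reads as more growth inhibition (inferred: compounds with an IC50 in retests scored well above the rest). About 18,000 compounds were tested under these conditions; 7.9% (about 1,400) showed 50% or more at least once.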
Mtb cholesterol medium: 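Phenotypic screen: M. tuberculosis growth, cholesterol and DPPC medium, 4 days; the read-out is not stated. Concentration: 500 µM. The record gives no direction; compounds that gave an IC50 in retests scored well above the rest, so higher reads as more growth inhibition. Size under these conditions: about 18,000 compounds, about 900 of them at 50% or above in at least one test.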

Results are given as percent effect. How 0% and 100% were set is not recorded. Most values in the screen are low, and negative values occur. Many other results are left out here, so strong results are more common than in the screen. A dash means the value is not listed here; it may have been measured.

| Compound | Mtb glucose medium | Mtb cholesterol medium |
|---|---|---|
| `COc1ccc2c(c1)C(N)CCN2` (centres unmarked) | -0.7744 | - |
| `CC(=O)c1c[nH]c(C(=O)NC2(C)CCS(=O)(=O)C2)c1` (centres unmarked) | -2.825 | - |
| `CC(=O)N1CCC(NS(=O)(=O)c2ccc(C)s2)CC1` | - | 3.514 |
| `CCCn1nc(C(=O)N2CCC2)c2ccccc2c1=O` | 26.44 | - |
| `CC(=O)Nc1nc(C(=O)NCc2ccc(C)s2)cs1` | 72 | 77.57 |
| `Cc1ccc2c(c1)OC(C)CN2S(C)(=O)=O` (centres unmarked) | -3.18 | - |
| `O=C1OCCC12CCNC2` (centres unmarked) | - | -4.936 |
| `CN(C)c1ccc(CN2CCOCC(O)C2)cn1` (centres unmarked) | - | -3.345 |
| `CC(C)N(C)S(=O)(=O)NC1CCOc2ccccc21` (centres unmarked) | 56.07 | - |
| `CC(O)CN1CCN(C(=O)C2CCCC2)CC1` (centres unmarked) | -6.689 | - |
| `CN1CCN(C(=O)COc2ccc(F)cc2F)CC1` | 29.01 | 18.99 |
| `Cc1ccc2[nH]cc(CCN)c2c1` | 35.82 | 42.12 |
| `CNC(=O)[C@@H](C)NC(=O)c1ccc(-c2ccc(C)o2)s1` | 67.9 | 68.2 |
| `O=C(CSc1cnn[nH]1)OCc1ccccc1` | 53.48 | 18.08 |
| `COC(=O)Cc1ccc(-n2cnnn2)cc1` | 3.812 | - |
| `Cc1noc(C)c1S(=O)(=O)NCCc1ccccn1` | -4.857 | - |
| `CCc1nc(C#N)c(NCc2ccc3c(c2)OCO3)o1` | 79.87 | 72.84 |
| `Cc1nc(N(C)C)cc(N2CCN(S(C)(=O)=O)CC2)n1` | 1.858 | - |
| `Cc1ccccc1C(C)NC(=O)Cn1ccccc1=O` (centres unmarked) | 6.864 | - |
| `c1ccc(NC2CCN(C3CCCC3)C2)nc1` (centres unmarked) | 55.99 | 70.38 |
| `Cc1ccc(C2(O)CCNC2)cc1` (centres unmarked) | 70.89 | - |
| `CN1CCCC1CC(=O)NCc1ccc(CN)cc1` (centres unmarked) | - | -9.357 |
| `CC1Cc2ccccc2N(C(=O)c2csnn2)C1` (centres unmarked) | 56.2 | 35.12 |
| `O=C(NC1CCN(C2CC2)CC1)c1cncc(Br)c1` | - | -6.748 |
| `COC[C@@H]1CCCN1C(=O)Nc1cnns1` | 0.9428 | - |
| `CNC(=O)NC(=O)CCN1CCCCC1` | 43.52 | 12.45 |
| `CC(C)S(=O)(=O)CCCn1nnc(-c2ccsc2)n1` | 69.45 | 62.4 |
| `O=C(NCC1(Cn2ccnc2)CC1)C1CCOC1` (centres unmarked) | 12.58 | - |
| `OCC1CNc2c(F)cccc2C1` (centres unmarked) | - | 3.896 |
| `CC(Cn1cccn1)NC(=O)NCCn1ccnc1` (centres unmarked) | - | 12.76 |
| `CNC(=O)c1ccccc1S(=O)(=O)CCOC` | - | -0.104 |
| `NCc1cnc2ccsc2c1` | 7.796 | - |
| `CNC(=O)NC(=O)CCN1CCc2ccccc2C1` | 83.78 | 77.22 |
| `Cc1cc(C(=O)N2C[C@@H](CO)[C@H](N(C)C)C2)nn1C` | -1.796 | - |
| `CCCN(CC(=O)OC)S(=O)(=O)CCCC#N` | 2.256 | - |
| `CNCc1ccc(Cn2ccnc2)cc1` | 1.973 | -5.35 |
| `CCC[C@H]1CN(C(=O)c2cnc(C)nc2)C[C@@H]1N` | 7.465 | - |
| `Cc1nc(C)c(C(=O)NC(C)(C)C)s1` | 9.305 | - |
| `NC1CCCc2nc(N3CCC(CO)CC3)ncc21` (centres unmarked) | -208.5 | - |
| `OCCNCC(O)c1ccc(Br)cc1` (centres unmarked) | 17.79 | 5.038 |
| `CC(C)CN1CCC(O)CC1` | - | 4.291 |
| `CNC(=O)c1c(C)nn(-c2ccc(F)cc2)c1Cl` | 12.25 | - |
| `CNC(=O)C(CC(C)C)NC(=O)c1ccccn1` (centres unmarked) | 4.143 | - |
| `O=C(c1ccc(CN2CCOCC2)cc1)N1CCCC1` | 16.05 | - |
| `CCOC(=O)N1CCN(C(=O)c2onc(C)c2Cl)CC1` | 36.1 | 36.56 |
| `CC(C)[C@H](N)C(=O)N1CCc2cccc(F)c2C1` | -1.625 | - |
| `Cc1nccn1CCCNC(=O)c1cn(CCN)nn1` | 2.024 | - |
| `NC1(CF)CCOCC1` | 4.309 | - |
| `NCc1cccc(S(=O)(=O)C(F)(F)F)c1` | 13.62 | - |
| `CC(C)c1nsc(N2CCOCC2C)n1` (centres unmarked) | 16.94 | - |
| `NC(=O)C1CCCCN1CC(=O)Nc1cccc(F)c1` (centres unmarked) | - | -17.23 |
| `CC(C)(C)C(=O)N1CCC(O)(C(F)(F)F)C1` (centres unmarked) | 6.377 | - |
| `COC(=O)CNc1ccccc1` | 55.83 | - |
| `CN(C)C(CNC(=O)c1ccc(O)nc1)c1cccs1` (centres unmarked) | - | -9.281 |
| `COc1cccc(CN2CCNCC2)c1OC` | 15.23 | - |
| `COc1ccc(S(N)(=O)=O)c(OC)c1OC` | -0.06459 | - |
| `O=S(=O)(N1CCCCC1)N(Cc1cccnc1)C1CC1` | 47.73 | - |
| `COc1ccccc1NC(=O)CCN1CCC(O)CC1` | 0.0727 | - |
| `CC(Cn1ccnc1)NC(=O)CN1CCCC1=O` (centres unmarked) | 1.253 | - |
| `CS(=O)(=O)c1cccc(C(=O)NCCCN)c1` | -3.881 | - |
| `COc1cc(C(N)=O)cc2c1OCCO2` | 7.111 | - |
| `O=C(c1cc(Cl)c[nH]1)N1CCNCC1` | 11.56 | - |
| `CCO[C@H]1CN(C)C[C@@H]1NC(=O)c1cnn(C(C)C)c1` | - | 1.216 |
| `Cc1cc(F)ccc1NC(=O)NCCCn1cnnc1` | 17.7 | -3.393 |
| `CC1c2cccn2CCN1C(=O)c1ccc(O)nc1` (centres unmarked) | -15.62 | - |
| `c1cncc(CCNc2ccc3nnnn3n2)c1` | -2.752 | -1.489 |
| `Cc1ccccc1CC(=O)NCCC1CCNC1` (centres unmarked) | -4.549 | - |
| `COCC(C)(C)C(=O)NCc1cc(F)ccc1C` | 13.83 | - |
| `CN1CCC[C@@H]1CN1CCN(C(=O)c2ccc[nH]2)CC1` | - | -1.16 |
| `CC(C)C1CCCCN1C(=O)CCS(C)(=O)=O` (centres unmarked) | 40.74 | - |
| `CCC(O)(CC)CCN` | 4.718 | - |
| `Cn1cc(Br)cc(NC(=O)c2sccc2C#N)c1=O` | -21.5 | - |
| `Cc1ccc(NC(=O)C(C)N)cc1` (centres unmarked) | - | -1.696 |
| `CCCc1cc(C(=O)N2CCCN(C)CC2)cs1` | 57.51 | 37.91 |
| `COc1ccc(NC(=O)N2CCCN(C)CC2)cc1F` | 62.04 | - |
| `CNC(=O)c1ccc(CN)o1` | 8.178 | - |
| `O=S1(=O)CCCN(Cc2ccc(Br)c(F)c2)CC1` | 73.18 | 77.27 |
| `CSc1ccc2c(c1)CCN(C(=O)C1CCNC1)C2` (centres unmarked) | 72.69 | 43.04 |
| `Cc1n[nH]c(SCC(=O)N[C@@H]2CCNC[C@H]2O)n1` | - | 6.817 |
| `CC(C)c1cccc(NC(=O)CN2CCC(O)CC2)c1` | 66.47 | 62.28 |
| `Nc1nnc(SCc2ccccc2F)s1` | 61.69 | 54.84 |
| `CN(C)Cc1ccc(CN)s1` | 15.64 | - |
| `CCn1cc(CN2CCCN(C(=O)CSC)CC2)cn1` | 12.6 | - |

5 of the entries, repeated:

Compound,Mtb glucose medium,Mtb cholesterol medium
CCCc1cc(C(=O)N2CCCN(C)CC2)cs1,57.51,37.91
NCc1cnc2ccsc2c1,7.796,-
COCC(C)(C)C(=O)NCc1cc(F)ccc1C,13.83,-
CC(C)CN1CCC(O)CC1,-,4.291
O=C(CSc1cnn[nH]1)OCc1ccccc1,53.48,18.08

Data taken from ChEMBL document CHEMBL3988442, “University of Dundee, Small-Polar-MMV Screening Library” (2021).